Measured values: patent publication US20090281054A1, “COMPOSITIONS AND METHODS COMPRISING CAPURAMYCIN ANALOGUES” (priority 2008, published 2009)

Tested on: intracellular Mycobacterium tuberculosis
Settings: Day 0 RLU 255, Control Day 7 1856

CO[C@H]1[C@@H](O)[C@H](n2ccc(=O)[nH]c2=O)O[C@@H]1[C@@H](O[C@H]1OC(C(=O)N[C@H]2CCC[C@@H](C)NC2=O)=C[C@H](O)[C@@H]1O)C(N)=O [SQ997]
Mean RLU Day 7 (unconjugated SQ997 8 μg/mL): 1080 RLU | Mean RLU Day 7 (unconjugated SQ997 16 μg/mL): 410 RLU

NNC(=O)c1ccncc1 [INH, isoniazid, reference compound]
Mean RLU Day 7 (INH 0.125): 4 RLU

Read-outs that look alike come from different tables or passages of the source.
